The values below come from US12691107B2, “Methods for the treatment and prevention of lung infections caused by gram-positive bacteria, fungus, or virus by administration of tafenoquine” (priority 2020, dated 2026).

Several values for one entry are separate records, joined by “and”; a condition that tells them apart may be missing. Equal values may be shown once.

For this data set, the system named is SARS-CoV-2. In words: Calculation of RLTEC and MPEC50 for tafenoquine against SARS-CoV-2. On the procedure: Pneumocystis was used as a model organism against which to set minimum requirements for the maximum acceptable in vitro EC50 of tafenoquine against SARS-CoV-2 in vitro. Pneumocystis was selected because it is the only lung pathogen for which both in vitro and in vivo data are available for tafenoquine. The maximum lung tissue concentration [LTsscmaxrats] at the minimum dose of tafenoquine necessary to inhibit the growth of Pneumocystis in vivo in a treatment modality was calculated using relevant data derived from the scientific literature [see Table 7]. The ratio of that concentration to the EC50 against Pneumocystis in vitro RLTEC was determined [see Table 7]. The plasma steady state Cmax [Psscmaxhumans] at the approved prophylactic dose is known from the ARAKODA product insert [60 Degrees Pharmaceuticals. 2018. Product Insert for ARAKODA.]. The maximum steady state lung tissue concentration [LTsscmaxhumans] of that dose was determined using relevant metrics from the literature. The maximum permissible EC50 (“MPEC50”) was then defined by dividing the LTsscmaxhumans by the RLTEC [Table 7]. […]
[Note: These calculated values provided in this example were recalculated and updated in the present application and therefore may differ from what is presented in some cross-referenced U.S. Provisional Applications.]

Consider `COc1cc(C)c2c(Oc3cccc(C(F)(F)F)c3)c(OC)cc(NC(C)CCCN)c2n1` (stereo not shown) [Tafenoquine, N(4)-[2,6-Dimethoxy-4-methyl-5-[3-(trifluoromethyl)phenoxy]quinolin-8-yl]pentane-1,4-diamine], for which the “RLTEC (ratio of lung tissue concentration to EC50 against Pneumocystis in vitro)” value is 23 and 23.3.
